A mixed list of measured activities; the numbers were collected in NIAID ChemDB.

Shared fields: whole-cell or culture tests

A number after MIC or MFC names an inhibition level or a share of isolates. Lines come from different laboratories, so protocols vary. Inhibition is in % at the dose shown (toxicity tests: loss of growth or viability). ECn is the concentration giving n% inhibition of infection, replication or growth. An empty or dashed field is not shown.

SMILES,tested at,cell line,read by,measure,species,strain,conditions,result
Nc1ccn([C@@H]2C=C(CO)[C@@H](O)[C@@H]2O)c(=O)n1,-,VERO,cytopathic effect,EC50,West Nile virus,Uganda,-,0.046 µg/mL
CC1(C)C(=O)C(C(=O)Cc2ccccc2)=C(O)C(C)(C)C1=O,-,-,-,MIC,Enterococcus faecalis,Vancomycin-resistant,-,63 µg/mL
O=C(Nc1ccc(C(F)(F)F)cc1)c1cc(Cl)ccc1OP(=O)(c1ccccc1)c1ccccc1,-,-,-,MIC,Mycobacterium kansasii,My 6509/96,7 d,4 µM
Cc1c(N2CC[C@H](N)C2)c(F)cn2c(=O)c(C(=O)O)cc(C3CCC3)c12,-,-,-,MIC,Streptococcus pyogenes,EES61,-,0.78 µg/mL
O=c1cnn([C@@H]2O[C@H](CO)[C@@H](O)[C@H]2O)c(=O)[nH]1,-,MA-104,cytopathic effect / visual reading,EC50,West Nile virus,NEW YORK,-,0.1 µg/mL
Nc1ncnc2c1ncn2CCOCP(=O)(O)O,-,HEL,cytopathic effect,EC50,Varicella zoster virus,Oka BVaraU-resistant,-,26.4 µM
O=C(Nc1ccc(Br)cc1)c1cc(Cl)ccc1OP(=O)(Oc1ccccc1)c1ccccc1,-,-,-,MIC,Mycobacterium kansasii,My 235/80,21 d,8 µM
O=c1[nH]c(=O)n([C@@H]2O[C@H](CO)[C@@H](O)[C@H]2O)[nH]c1=S,-,VERO,cytopathic effect,EC50,West Nile virus,Uganda,-,78 µg/mL
NC(=O)c1ncn([C@@H]2O[C@H](CO)[C@@H](O)[C@H]2O)n1,4 µg/mL,HEP-2,plaque count,inhibition,Respiratory syncytial virus,109,-,75%
C#C[C@]1(CO)O[C@@H](n2cnc3c(N)nc(F)nc32)C[C@@H]1O,-,PBMC,p27 / ELISA,EC90,SIV,-,-,0.0004 µM
NC(=O)c1[nH]nc([C@@H]2O[C@H](CO)[C@@H](O)[C@H]2O)c1O,-,VERO,cytopathic effect / visual reading,EC50,West Nile virus,Uganda,-,0.5 µg/mL
O=C(Nc1ccc(C(F)(F)F)cc1)c1cc(Br)ccc1OP(=O)(c1ccccc1)c1ccccc1,-,-,-,MIC,Mycobacterium kansasii,My 6509/96,14 d,4 µM
CC(=O)N1CCN(c2ccc(OC[C@H]3CO[C@](Cn4ccnc4)(c4ccc(Cl)cc4Cl)O3)cc2)CC1,-,-,-,MIC,Candida albicans,Isogenic isolate 8 (25X),-,≤0.008 µg/mL
Nc1ccc(S(=O)(=O)Nc2ncccn2)cc1,-,-,-,EC50,Toxoplasma gondii,-,-,<2 µg/mL
Cc1c(N2CCC3(CCC[C@H]3N)C2)c(F)cn2c(=O)c(C(=O)O)cc(C3CC3)c12,-,-,-,MIC,Enterococcus faecium,ATCC 8043,-,0.1 µg/mL
NC(=O)c1c[se]c([C@@H]2O[C@H](CO)[C@@H](O)[C@H]2O)n1,-,HeLa,cytopathic effect,EC50,Measles virus,Edmonston,-,2 µg/mL
C[C@H](Cc1ccc(O)c(O)c1)[C@@H](C)Cc1ccc(O)c(O)c1,-,-,broth dilution,MIC50,Candida albicans,CCC 128-2000,-,125 µg/mL
O=C(Nc1ccc(C(F)(F)F)cc1)c1cc(Cl)ccc1OP(=O)(Oc1ccccc1)Oc1ccccc1,-,-,-,MIC,Mycobacterium kansasii,My 6509/96,7 d,4 µM
Cc1c(N2Cc3cccnc3C2)c(F)cn2c(=O)c(C(=O)O)cc(C3CC3)c12,-,-,-,MIC,Enterococcus faecium,ATCC 8043,-,0.05 µg/mL
CCCCCCCCCCCC(=O)C1=C(O)C(C)(C)C(=O)C(C)(C)C1=O,-,-,-,MIC,Enterococcus faecalis,Vancomycin-resistant,-,2 µg/mL
Nc1cc(OCCOCP(=O)(O)O)nc(N)n1,-,-,cytopathic effect,EC50,Cytomegalovirus,AD169,-,>190 µM
O=C1c2cc(Cl)ccc2OP(=O)(c2ccccc2)N1c1ccc(C(F)(F)F)cc1,-,-,-,MIC,Mycobacterium kansasii,My 6509/96,21 d,8 µM
CC(=O)OC[C@H]1O[C@@H](n2ncc(=O)[nH]c2=O)[C@H](OC(C)=O)[C@@H]1OC(C)=O,-,MA-104,cytopathic effect / visual reading,EC50,West Nile virus,NEW YORK,-,0.5 µg/mL
CCCCCCCCCCCCCCCC(=O)C1=C(O)C(C)(C)C(=O)C(C)(C)C1=O,-,-,-,MIC,Enterococcus faecalis,Vancomycin-resistant,-,31 µg/mL
C[C@@]1(O)[C@H](O)[C@@H](CO)O[C@H]1c1c[nH]c2c(N)ncnc12,2 µg/mL,HepG2-5B,MTT,inhibition,Hepatitis C virus,-,-,0%
Nc1cc(OC[C@H](CO)OCP(=O)(O)O)nc(N)n1,-,-,cytopathic effect,EC50,Cytomegalovirus,DAVIS,-,139 µM
CCCCCCCCCCCC(=O)C1=C(O)C(CC=C(C)C)(CC=C(C)C)C(=O)C(CC=C(C)C)(CC=C(C)C)C1=O,-,-,-,MIC,Enterococcus faecalis,Vancomycin-resistant,-,125 µg/mL
COc1c(C)c2c(c(O)c1C/C=C(\C)CCC(=O)O)C(=O)OC2,-,MA-104,virus yield,EC90,West Nile virus,NEW YORK,-,0.3 µg/mL
CO[C@@H]1[C@@H](OC(N)=O)[C@@H](O)[C@H](Oc2ccc3c(O)c(NC(=O)c4ccc(O)c(CC=C(C)C)c4)c(=O)oc3c2C)OC1(C)C,-,Akata-Bx1,PCR,EC50,Epstein-Barr virus,-,-,41.05 µM
Nc1ncnc2c1ncn2CCOCP(=O)(O)O,-,-,cytopathic effect,EC50,Cytomegalovirus,DAVIS,-,95 µM
CCC1(CC)C(=O)C(C(=O)CCc2ccccc2)=C(O)C(CC)(CC)C1=O,-,-,-,MIC,Enterococcus faecalis,Vancomycin-resistant,-,31 µg/mL
O=c1[nH]c(=O)n([C@H]2C[C@H](O)[C@@H](CO)O2)cc1/C=C/Br,10 µM,P3HR-1,-,inhibition,Epstein-Barr virus,-,-,4%
Cc1ccc(C(=O)Nc2ccc(S(=O)(=O)O)c3cc(S(=O)(=O)O)cc(S(=O)(=O)O)c23)cc1NC(=O)c1cccc(NC(=O)Nc2cccc(C(=O)Nc3cc(C(=O)Nc4ccc(S(=O)(=O)O)c5cc(S(=O)(=O)O)cc(S(=O)(=O)O)c45)ccc3C)c2)c1,-,VERO,cytopathic effect / visual reading,EC50,West Nile virus,Uganda,-,>80 µg/mL
NC1CCCCCCC1,-,-,-,MIC,Influenza A virus,A/Maryland/104/68,-,0.1 µg/mL
Cc1c(N2CC[C@H](N)C2)c(F)cn2c(=O)c(C(=O)NCC(=O)O)cc(C3CC3)c12,-,-,-,MIC,Streptococcus pyogenes,EES61,-,50 µg/mL
CCO/N=C/c1ccc(OCCC2CCN(c3ccc(C)nn3)CC2)cc1,-,KB,neutral red,EC50,Rhinovirus,121564 (ICAM-1 receptor group 86),-,0.041 µM
O=S(=O)(F)Cc1ccccc1,-,-,cell count / microscopy,EC50,Cryptosporidium parvum,-,-,>2000 µM
COc1c(C)c2c(c(O)c1CC(=O)O)C(=O)OC2,-,VERO,plaque count,EC50,Parainfluenza virus,TYPE 2/GREER,-,0.9 µg/mL
NC(=O)c1csc([C@@H]2O[C@H](COP(=O)(O)CP(=O)(O)OC[C@H]3O[C@@H](n4cnc5c(N)ncnc54)[C@H](O)[C@@H]3O)[C@@H](O)[C@H]2O)n1,-,VERO,cytopathic effect,EC50,West Nile virus,NEW YORK,-,125 µg/mL
CO[C@@H]1[C@H](O)[C@@H](COP(=O)(O)OP(=O)(O)OP(=O)(O)O)O[C@H]1n1ccc(N)nc1=O,30 µg/mL,HepG2-5B,MTT,inhibition,Hepatitis C virus,-,-,52.03%
CCC[C@H](N)C1CCN(c2c(F)cn3c(=O)c(C(=O)O)cc(C4CC4)c3c2C)C1,-,-,-,MIC,Enterococcus faecium,ATCC 8043,-,0.01 µg/mL
COc1cc([C@@H]2c3cc4c(cc3[C@@H](O[C@@H]3O[C@@H]5CO[C@@H](c6cccs6)O[C@H]5[C@H](O)[C@H]3O)[C@H]3COC(=O)[C@H]23)OCO4)cc(OC)c1O,1 µg/mL,-,-,inhibition,Pneumocystis carinii,-,7 d,81%
O=C(Nc1ccc(Br)cc1)c1cc(Cl)ccc1OP(=O)(Oc1ccccc1)Oc1ccccc1,-,-,-,MIC,Mycobacterium kansasii,My 6509/96,21 d,8 µM
Cc1c(N2C[C@H]3CCCC[C@@]3(N)C2)c(F)cn2c(=O)c(C(=O)O)cc(C3CC3)c12,-,-,-,MIC,Streptococcus pyogenes,EES61,-,0.1 µg/mL
O=C(Nc1ccccc1)c1ccccc1OP(=O)(Oc1ccccc1)Oc1ccccc1,-,-,-,MIC,Mycobacterium kansasii,My 235/80,14 d,500 µM
CC[C@H](N)C1CCN(c2c(F)cn3c(=O)c(C(=O)O)cc(C4CC4)c3c2C)C1,-,-,-,MIC,Enterococcus faecium,ATCC 8043,-,0.01 µg/mL
O=c1[nH]cnc2c([C@@H]3O[C@H](CO)[C@@H](O)[C@H]3O)[nH]nc12,-,VERO,cytopathic effect,EC50,West Nile virus,NEW YORK,-,>43 µg/mL
Nc1ncnc2c1ncn2C[C@@H](CO)OCP(=O)(O)O,1 µM,P3HR-1,-,inhibition,Epstein-Barr virus,-,-,7%
CO[C@H]1[C@@H](OC(=O)/C=C/C=C/C=C/C=C/C(=O)O)CC[C@@]2(CO2)[C@@H]1[C@@]1(C)O[C@@H]1CC=C(C)C,-,-,-,MIC,Vittaforma corneae,-,-,0.00081 µg/mL
CN(C)[C@@H]1C(=O)C(C(N)=O)=C(O)[C@@]2(O)C(=O)C3=C(O)c4c(O)c(NC(=O)CNC(F)(F)F)cc(F)c4C[C@H]3C[C@@H]12,-,-,agar diffusion,EC50,Streptococcus pneumoniae,106-49619,-,0.5 µg/mL

The first 5 rows once more:

SMILES | tested at | cell line | read by | measure | species | strain | conditions | result
Nc1ccn([C@@H]2C=C(CO)[C@@H](O)[C@@H]2O)c(=O)n1 | - | VERO | cytopathic effect | EC50 | West Nile virus | Uganda | - | 0.046 µg/mL
CC1(C)C(=O)C(C(=O)Cc2ccccc2)=C(O)C(C)(C)C1=O | - | - | - | MIC | Enterococcus faecalis | Vancomycin-resistant | - | 63 µg/mL
O=C(Nc1ccc(C(F)(F)F)cc1)c1cc(Cl)ccc1OP(=O)(c1ccccc1)c1ccccc1 | - | - | - | MIC | Mycobacterium kansasii | My 6509/96 | 7 d | 4 µM
Cc1c(N2CC[C@H](N)C2)c(F)cn2c(=O)c(C(=O)O)cc(C3CCC3)c12 | - | - | - | MIC | Streptococcus pyogenes | EES61 | - | 0.78 µg/mL
O=c1cnn([C@@H]2O[C@H](CO)[C@@H](O)[C@H]2O)c(=O)[nH]1 | - | MA-104 | cytopathic effect / visual reading | EC50 | West Nile virus | NEW YORK | - | 0.1 µg/mL